Pooled drug test results. Numbers come from NIAID ChemDB, via PubChem.

Shared fields: tests in culture; species: Hepatitis C virus; cell line: Huh7; read-out: inhibition

Two numbers with a dash give a range or band.

structure,strain or isolate,read by,conditions,tested at,result
COc1cc(Cc2cnc(/N=C3\C(=O)N(CN4CCOCC4)c4ccc(Br)cc43)nc2N)cc(OC)c1OC,,replicon,,50 µg/mL,20%
CCn1cc(C(=O)O)c(=O)c2cc(F)c(N3CCN(CN4C(=O)/C(=N\c5ncc(Cc6cc(OC)c(OC)c(OC)c6)c(N)n5)c5cc(F)ccc54)C(C)C3)c(F)c21,,,,50 µg/mL,89%
Nc1ncnc2c1ncn2[C@@H]1C2C[C@@]2(CO)C(O)C1(O)CF,,replicon,,100 µM,0%
CCN(CC)CN1C(=O)/C(=N\c2ncc(Cc3cc(OC)c(OC)c(OC)c3)c(N)n2)c2cc(F)ccc21,,,,50 µg/mL,82%
O=C1NC(=Nc2nnc(-c3ccccc3F)s2)SC1=Cc1cccc(F)c1,GT1b,luciferase,,50 µM,74%
COc1cc(Cc2cnc(/N=C3\C(=O)N(CN4CCC(C)CC4)c4ccc(F)cc43)nc2N)cc(OC)c1OC,,,,50 µg/mL,100%
COc1cccc(N2CCN(CN3C(=O)/C(=N\c4ncc(Cc5cc(OC)c(OC)c(OC)c5)c(N)n4)c4cc(Br)ccc43)CC2)c1,,replicon,,50 µg/mL,6%
CC1(C)CC[C@@]2(C(=O)NCc3cn(CCn4cc(CNC(=O)[C@]56CCC(C)(C)CC5C5=CCC7[C@@]8(C)CC[C@H](O)C(C)(C)C8CC[C@@]7(C)[C@]5(C)C[C@H]6O)nn4)nn3)C(C1)C1=CCC3[C@@]4(C)CC[C@H](O)C(C)(C)C4CC[C@@]3(C)[C@]1(C)C[C@H]2O,,luciferase / entry,,5 µM,68.2%
O=C(Nc1cccc(-c2cccc(Cl)c2)c1)C1CCN(Cc2ccccn2)CC1,JFH-1,PCR,,15 µM,≥40%
Cc1ccc2nc(Nc3ccc([N+](=O)[O-])cc3)sc2c1,,luciferase,,20 µM,38%
COc1cc(Cc2cnc(/N=C3\C(=O)N(CN4CCN(C)CC4)c4ccc(Br)cc43)nc2N)cc(OC)c1OC,,replicon,,50 µg/mL,24%
CC1(C)CC[C@@]2(C(=O)NCc3cn(CC(Cn4cc(CNC(=O)[C@]56CCC(C)(C)CC5C5=CCC7[C@@]8(C)CC[C@H](O)C(C)(C)C8CC[C@@]7(C)[C@]5(C)C[C@H]6O)nn4)n4cc(CNC(=O)[C@]56CCC(C)(C)CC5C5=CCC7[C@@]8(C)CC[C@H](O)C(C)(C)C8CC[C@@]7(C)[C@]5(C)C[C@H]6O)nn4)nn3)C(C1)C1=CCC3[C@@]4(C)CC[C@H](O)C(C)(C)C4CC[C@@]3(C)[C@]1(C)C[C@H]2O,,luciferase / entry,,1 µM,19.8%
Cc1nc(C)c(CN2CCC(C(=O)Nc3cccc(-c4cccc(F)c4)c3)CC2)nc1C,JFH-1,PCR,,5 µM,≥40%
O=C1CSC(=Nc2nnc(-c3ccccc3F)s2)N1,GT1b,luciferase,,50 µM,0%
CC1(C)CC[C@@]2(C(=O)NCc3cn(Cc4ccccc4Cn4cc(CNC(=O)[C@]56CCC(C)(C)CC5C5=CCC7[C@@]8(C)CC[C@H](O)C(C)(C)C8CC[C@@]7(C)[C@]5(C)C[C@H]6O)nn4)nn3)C(C1)C1=CCC3[C@@]4(C)CC[C@H](O)C(C)(C)C4CC[C@@]3(C)[C@]1(C)C[C@H]2O,,luciferase / entry,,5 µM,65.7%
Cc1ccc2nc(Nc3ccc(OCc4ccccc4)cc3)sc2c1,,luciferase,,20 µM,35%
CC1(O)C(O)[C@]2(CO)CC2[C@H]1n1cnc2c(N)ncnc21,,replicon,,100 µM,0%
O=C(Nc1cccc(-c2cccc(Cl)c2)c1)C1CCN(Cc2cccc(O)c2)CC1,JFH-1,PCR,,15 µM,<40%
Cc1ccc2nc(Nc3cc(O)cc([N+](=O)[O-])c3)sc2c1,,luciferase,,5 µM,23%
CC(C)n1cc(CN2CCC(C(=O)Nc3cccc(-c4cc5ccccc5[nH]4)c3)CC2)cn1,JFH-1,PCR,,15 µM,≥40%
Cc1ccc2nc(Nc3cccc([N+](=O)[O-])c3)sc2c1,,luciferase,,20 µM,76%
COc1nc(N)nc2c1ncn2[C@@H]1O[C@H](COP(=O)(N[C@@H](C)C(=O)OCC(C)(C)C)Oc2cccc3ccccc23)[C@@H](O)[C@@]1(C)O,2a,luciferase,24 h,0.0065 µM,90%
O=c1[nH]cnc2c1ncn2[C@@H]1C2C[C@@]2(CO)C(O)C1(O)CO,,replicon,,100 µM,0%
CC1(C)CC[C@]2(C(=O)O)[C@H](O)C[C@]3(C)C(=CC[C@@H]4[C@@]5(C)CC[C@H](O)C(C)(C)[C@@H]5CC[C@]43C)[C@@H]2C1,,luciferase / entry,,5 µM,77.7%
O=C1NC(=Nc2nnc(-c3cccc(F)c3)s2)SC1=Cc1c(Cl)cccc1Cl,GT1b,luciferase,,50 µM,77%
COc1cc(Cc2cnc(/N=C3\C(=O)N(CN4CCN(c5ccccn5)CC4)c4ccc(C)cc43)nc2N)cc(OC)c1OC,,,,50 µg/mL,72%
Cc1cc(C)cc(Nc2nc3ccc(C)cc3s2)c1,,luciferase,,20 µM,85%
O=C1NC(=Nc2nnc(-c3ccc(Cl)cc3Cl)s2)SC1=Cc1c(Cl)cccc1Cl,GT1b,luciferase,,50 µM,58%
COc1cc(Cc2cnc(/N=C3\C(=O)N(CN4CCN(c5ccc(Cl)cc5)CC4)c4ccc(F)cc43)nc2N)cc(OC)c1OC,,,,50 µg/mL,90%
O=C(Nc1cccc(-c2cccc(F)c2)c1)C1CCN(Cc2cccc3c2OCO3)CC1,JFH-1,PCR,,15 µM,<40%
O=C1CSC(=Nc2nnc(-c3cccc(F)c3)s2)N1,GT1b,luciferase,,50 µM,25%
Cc1c(C(=O)NN2CCCCC2)nn(-c2ccc(Cl)cc2Cl)c1-c1ccc(I)cc1,JFH-1,PCR,,10 µM,60–70%
CC1(C)CC[C@@]2(C(=O)NCCn3cc(CN(Cc4cn(C(C)(C)C)nn4)Cc4cn(C(C)(C)C)nn4)nn3)C(C1)C1=CCC3[C@@]4(C)CC[C@H](O)C(C)(C)C4CC[C@@]3(C)[C@]1(C)C[C@H]2O,,luciferase / entry,,1 µM,1.2%
CC1(C)CC[C@]2(C(=O)O)[C@H](O)C[C@]3(C)C(=CC[C@@H]4[C@@]5(C)CC[C@H](O)C(C)(C)[C@@H]5CC[C@]43C)[C@@H]2C1,,luciferase / entry,,1 µM,27.5%
COc1cc(Cc2cnc(/N=C3\C(=O)N(CN4CCNCC4)c4ccc(C)cc43)nc2N)cc(OC)c1OC,,,,50 µg/mL,96%
C=C(C)[C@@H]1CC[C@]2(C(=O)O)CC[C@]3(C)[C@H](CC[C@@H]4[C@@]5(C)CC[C@H](O)C(C)(C)[C@@H]5CC[C@]43C)[C@@H]12,,luciferase / entry,,5 µM,65.2%
COc1cc(Cc2cnc(/N=C3\C(=O)N(CN4CCN(c5ccccc5)CC4)c4ccc(C)cc43)nc2N)cc(OC)c1OC,,,,50 µg/mL,91%
COc1cc(Cc2cnc(/N=C3\C(=O)N(CN4CCN(c5cc6c(cc5F)c(=O)c(C(=O)O)cn6C5CC5)CC4)c4ccc(Br)cc43)nc2N)cc(OC)c1OC,,replicon,,50 µg/mL,19%
CC1(C)CC[C@@]2(C(=O)NCc3cn(CCc4ccc(CCn5cc(CNC(=O)[C@]67CCC(C)(C)CC6C6=CCC8[C@@]9(C)CC[C@H](O)C(C)(C)C9CC[C@@]8(C)[C@]6(C)C[C@H]7O)nn5)cc4)nn3)C(C1)C1=CCC3[C@@]4(C)CC[C@H](O)C(C)(C)C4CC[C@@]3(C)[C@]1(C)C[C@H]2O,,luciferase / entry,,1 µM,65.2%
COc1cccc(C)c1CN1CCC(C(=O)Nc2cccc(-c3cccc(F)c3)c2)CC1,JFH-1,PCR,,15 µM,≥40%
CCCCN(CCCC)CN1C(=O)/C(=N\c2ncc(Cc3cc(OC)c(OC)c(OC)c3)c(N)n2)c2cc(Br)ccc21,,replicon,,50 µg/mL,0%
O=C(Nc1ccc(-c2nc3ccccc3[nH]2)cc1)C1CCN(Cc2cc3ccccc3[nH]2)CC1,JFH-1,PCR,,15 µM,<40%
COc1ccc(N2CCN(CN3C(=O)/C(=N\c4ncc(Cc5cc(OC)c(OC)c(OC)c5)c(N)n4)c4cc(Br)ccc43)CC2)cc1,,replicon,,50 µg/mL,17%
COc1cc(Cc2cnc(/N=C3\C(=O)N(CN4CCN(c5ccc(Cl)cc5)CC4)c4ccc(C)cc43)nc2N)cc(OC)c1OC,,,,50 µg/mL,90%

Again, the opening 5 rows:

structure,strain or isolate,read by,conditions,tested at,result
COc1cc(Cc2cnc(/N=C3\C(=O)N(CN4CCOCC4)c4ccc(Br)cc43)nc2N)cc(OC)c1OC,,replicon,,50 µg/mL,20%
CCn1cc(C(=O)O)c(=O)c2cc(F)c(N3CCN(CN4C(=O)/C(=N\c5ncc(Cc6cc(OC)c(OC)c(OC)c6)c(N)n5)c5cc(F)ccc54)C(C)C3)c(F)c21,,,,50 µg/mL,89%
Nc1ncnc2c1ncn2[C@@H]1C2C[C@@]2(CO)C(O)C1(O)CF,,replicon,,100 µM,0%
CCN(CC)CN1C(=O)/C(=N\c2ncc(Cc3cc(OC)c(OC)c(OC)c3)c(N)n2)c2cc(F)ccc21,,,,50 µg/mL,82%
O=C1NC(=Nc2nnc(-c3ccccc3F)s2)SC1=Cc1cccc(F)c1,GT1b,luciferase,,50 µM,74%

Blank or dashed fields: not listed here. Percent inhibition refers to the dose given; in toxicity tests it is the harm to the cells. Rows are shuffled and stem from different studies.